Pooled drug test results. Numbers come from NIAID ChemDB, via PubChem.

All rows: tests in culture; organism: HIV-1; read-out: EC50

An empty or dashed field is not shown.

SMILES	strain	changes	read by	conditions	result
c1cc(CN2CCCNCCNCCCNCC2)ccc1CN1CCCNCCNCCCNCC1	LAI			pseudotyped	>0.00625 µM
c1ccc(CNCc2ccc(CN3CCCNCCNCCCNCC3)cc2)nc1	NL4-3				0.004 µg/mL
Cc1nnc(C(C)C)n1C1C[C@H]2CC[C@@H](C1)N2CC[C@H](NC(=O)C1CCC(F)(F)CC1)c1ccccc1	X4				>1000 nM
C[C@@H]1O[C@@H](O[C@@H]2[C@@H](O)[C@H](OCCc3ccc(O)c(O)c3)O[C@H](CO)[C@H]2OC(=O)/C=C/c2ccc(O)c(O)c2)[C@H](O)[C@H](O)[C@H]1O					13.8 µg/mL
O=C1CCN(CCOc2ccc(Cl)cc2C(=O)c2cc(Cl)cc(Cl)c2)C(=O)N1		Y181C	RT activity	pseudotyped	0.75 µM
Cc1cn([C@H]2C[C@H](N=[N+]=[N-])[C@@H](CO)O2)c(=O)[nH]c1=O			cytopathic effect		<1 µM
CN(C[C@@H](CCN1CCC(c2ccccc2)CC1)c1cccc(Cl)c1)S(=O)(=O)c1ccccc1	M-tropic YU-2		p24 / antigen		<6 µM
O=S(=O)(O)c1cc(S(=O)(=O)O)c2c(Nc3ccnc4cc(Cl)ccc34)ccc(S(=O)(=O)O)c2c1					1000 µg/mL
Nc1ncnc2c1ncn2CCOCP(=O)(O)O	LAI				3.8 µM
C#C[C@]1(CO)O[C@@H](n2ccc(N)nc2=O)[C@@H](O)[C@@H]1O					0.0115 µg/mL
O=C(N[C@H]1c2ccccc2C[C@H]1O)[C@H](OCc1ccccc1)[C@H](O)[C@@H](O)[C@@H](OCc1ccccc1)C(=O)N[C@H]1c2ccccc2C[C@H]1O					0.092 µM
CNC(=O)c1nc([C@]2(C)CSC([C@]3(C)CSC([C@]4(C)CSC(/C=C/c5ccccc5)=N4)=N3)=N2)oc1C					0.0047 µM
CC(C)OC(=O)[C@H](C)N[P@](=O)(CO[C@H](C)Cn1cnc2c(N)ncnc21)Oc1ccccc1					0.005 µM
[N-]=[N+]=NC1OC(COC(=O)c2ccccc2)C(OC(=O)c2ccccc2)C1F					>100 µM
CC(C)OC(=O)c1cc(NC(=S)OC(C)C)ccc1Cl					0.03 µM
Cc1cn([C@H]2C=C[C@@H](COP(=O)(O)OP(=O)(O)OP(=O)(O)O)O2)c(=O)[nH]c1=O					0.33 µM
Cc1cn([C@H]2C[C@H](N=[N+]=[N-])[C@@H](COC(=O)CCC(=O)Nc3ccn([C@H]4CC[C@@H](CO)O4)c(=O)n3)O2)c(=O)[nH]c1=O			cytopathic effect		<0.5 µM
Cc1cn([C@H]2C[C@H](N=[N+]=[N-])[C@@H](CO)O2)c(=O)[nH]c1=O					0.08 µg/mL
C[C@@H]1O[C@@H](O[C@@H]2[C@@H](O)[C@H](OCCc3ccc(O)c(O)c3)O[C@H](COC(=O)/C=C/c3ccc(O)c(O)c3)[C@H]2O)[C@H](O)[C@H](O)[C@H]1O					5.29 µg/mL
Cc1ccnc2c1NC(=O)c1cccnc1N2C1CC1		Y181C	RT activity / fluorescence		>67.5 µM
CC(C)=C1C=C(C(C)C)C(O)CC1					50 µM
CC1(Cn2cnc3c(N)nc(Cl)nc32)CC1CO					>100 µg/mL
CCc1cc(-c2ccc(C(F)(F)F)o2)n(-c2ccc3c(c2)nc(-c2cc(C(=O)N4CCCC4)ccc2O)n3CC2=CCC(=O)N=C2)n1	NL4-3		luciferase		0.062 µM
CC(C)(C)NC(=O)[C@@H]1C[C@@H]2CCCC[C@@H]2CN1C[C@@H](O)[C@H](Cc1ccccc1)NC(=O)[C@H](CC(N)=O)NC(=O)c1ccc2ccccc2n1	BMS-186318-resistant (PR A71T V82A)	PR-A71T V82A			0.013 µM
Nc1ncnc2c1ncn2[C@@H]1O[C@H](CO)C=C[C@H]1F					>100 µg/mL
CC(C)(C)NC(=O)[C@@H]1C[C@@H]2CCCC[C@@H]2CN1C[C@@H](O)[C@H](Cc1ccccc1)NC(=O)[C@@H](NC(=O)COc1cccnc1)C(C)(C)S(C)(=O)=O		PR-L101I I84V L90M			0.017 µM
Cc1ccccc1Cc1cccc(C(=O)CC(=O)C(=O)O)c1		INTG-T66I M154I	p24		0.3 µM
CC(C)CN(C[C@@H](O)[C@H](Cc1ccccc1)NC(=O)O[C@H]1CO[C@H]2OCC[C@H]21)S(=O)(=O)c1ccc2c(c1)OCO2	PI-resistant Clinical isolate				<0.01 µM
CN1N=C(N)c2cn([C@@H]3O[C@H](COP(=O)(O)O)[C@@H](O)[C@H]3O)c3ncnc1c23	IIIB		p24		0.02 µM
CCc1c(C)[nH]c(=O)c([N+](=O)[O-])c1Sc1cc(C)cc(C)c1	Isolated virion		RT activity		<1 µM
CCN(c1ncccc1NC(C)(C)C)C1CCN(C(=O)c2cc3cc(NS(C)(=O)=O)ccc3[nH]2)CC1	IIIB	RT-T139I	p24		0.95 ± 0.07 µM
Oc1ccc(-c2c(-c3cc(O)cc(O)c3)oc3ccccc23)cc1			single cycle		25.9–47.3 µM
Nc1ncnc2c1ncn2CCOCP(=O)(O)O					8.2 µM
O=c1[nH]c(SCc2cn(Cc3ccccc3)nn2)nc(Cc2c(Cl)cccc2Cl)c1I	IIIB		MTT		>120 µM
OC[C@@]1(F)O[C@@H](n2cnc3c(N(Cc4ccccc4)Cc4ccccc4)ncnc32)C[C@@H]1OCc1ccccc1					4 µM
Cc1ccnc2c1NC(=O)c1cccnc1N2C1CC1					0.0372 µM
CC(=O)OC(C)(C)/C=C/C(=O)[C@](C)(O)[C@H]1[C@H](O)C[C@@]2(C)C3CC=C4C(C[C@H](O)C(=O)C4(C)C)[C@]3(C)C(=O)C[C@]12C	C8166		syncytia		4.2 µg/mL
Nc1nc2c(ncn2CCOCP(=O)(O)O)c(=O)[nH]1					0.7 µM
CCOC(=O)c1cnnn1C1OC(COC(=O)c2ccccc2)C(OC(=O)c2ccccc2)C1F					>100 µM
COc1ccc(CCNc2nc(NC(=S)Nc3ccc(C)cc3)nc(Oc3cc(=O)oc4ccccc34)n2)cc1OC	RES056	RT-resistant RES056 (K103N + Y181C)	MTT		>53.66 µg/mL
NC(=O)c1[nH]c2ccc(Cl)cc2c1S(=O)(=O)c1ccccc1					0.005 µM
O=C(NCCCCN1CCCC2=C[C@H]3C[C@H](CN4CCCC[C@H]34)[C@@H]21)c1ccc(S(=O)(=O)F)cc1					>20 µM
O=C(NCc1ccc(F)cc1)c1nc(N2CCCCS2(=O)=O)c2cccnc2c1O		INTG-T66I S153Y	p24		0.02 µM
COc1cc(/C=C/C(=O)O[C@H]2[C@H](O)[C@@H](OC3OCC(O)(CO)C3O)[C@H](OCCc3ccc(O)cc3)O[C@@H]2CO)ccc1O					3.79 µg/mL
C=C(C)[C@H]1[C@@H]2OC3(/C=C/C=C/CCCCC)O[C@@H]2[C@@H]2[C@@H]4O[C@]4(CO)[C@@H](O)[C@]4(O)C(=O)C(C)=C[C@H]4[C@@]2(O3)[C@@H]1C	NL4-3		luciferase		0.00586 µM
CCOCn1c(Cc2ccccc2)c(C(C)C)c(=O)[nH]c1=O	HXB2	RT-Y181C	cytopathic effect / MTT		3.8 µM
CCN1C(=O)C(c2cc(C3C=NN=C3)c(O)cc2O)C(=O)N(c2ccccc2)c2cc(C(F)(F)F)ccc21	NL4-3		luciferase		0.13 µM
NC(=O)c1cnnn1[C@@H]1O[C@@H](CO)[C@H](O)[C@H]1F					>100 µM
OCCc1ccc(O)c(O[C@@H]2O[C@H](CO)[C@@H](O)[C@H](O)[C@H]2O)c1					3.25 µg/mL
Cc1cc(C)cc(C(=O)c2cc(Cl)ccc2OCCN2CCC(=O)NC2=O)c1		V106A	RT activity	pseudotyped	>10 µM
C=C1O[C@@H](n2cnc3c(N(Cc4ccccc4)Cc4ccccc4)ncnc32)C[C@@H]1OCc1ccccc1					4 µM
CC(=O)N[C@H](C(=O)N[C@@H](Cc1ccccc1)[C@H](O)CN1C[C@H]2CCCC[C@H]2C[C@H]1C(=O)NC(C)(C)C)C(C)(C)S(C)(=O)=O					0.056 µM
CC1(C)C2=CC(=O)C(O)(c3ccccc3)C(=O)N2c2ccc(Cl)cc21	RF		cytopathic effect / MTT		0.35 µM
O=c1[nH]cnc2c1ncn2[C@H]1CC[C@@H](CO)O1			XTT		0.76 µM
O=C1CC(c2ccccc2)Oc2cc(OC3O[C@H](CO)[C@@H](O)[C@H](O)[C@H]3O)ccc21					>20 µM
Fc1cccc(F)c1C1SCc2nc3ccccc3n21	IIIB	RT-Y188H	cytopathic effect / MTT		4.16 µM
Nc1nc(N)c2ncn([C@H]3CC[C@@H](CO)O3)c2n1					2.1 µM
[N-]=[N+]=N[C@@H]1O[C@@H](COC(=O)c2ccccc2)[C@H](OC(=O)c2ccccc2)[C@H]1F					>100 µM
Cc1cc(C#N)cc(C)c1Oc1nc(Nc2ccc(C#N)cc2)nc(N)c1Br	Clinical isolates		recombinant virus assay		<0.1 µM

7 of the rows above, restated:

SMILES | strain | changes | read by | conditions | result
CCOCn1c(Cc2ccccc2)c(C(C)C)c(=O)[nH]c1=O | HXB2 | RT-Y181C | cytopathic effect / MTT |  | 3.8 µM
CC(C)CN(C[C@@H](O)[C@H](Cc1ccccc1)NC(=O)O[C@H]1CO[C@H]2OCC[C@H]21)S(=O)(=O)c1ccc2c(c1)OCO2 | PI-resistant Clinical isolate |  |  |  | <0.01 µM
OC[C@@]1(F)O[C@@H](n2cnc3c(N(Cc4ccccc4)Cc4ccccc4)ncnc32)C[C@@H]1OCc1ccccc1 |  |  |  |  | 4 µM
O=C1CC(c2ccccc2)Oc2cc(OC3O[C@H](CO)[C@@H](O)[C@H](O)[C@H]3O)ccc21 |  |  |  |  | >20 µM
O=C(NCCCCN1CCCC2=C[C@H]3C[C@H](CN4CCCC[C@H]34)[C@@H]21)c1ccc(S(=O)(=O)F)cc1 |  |  |  |  | >20 µM
Cc1cc(C)cc(C(=O)c2cc(Cl)ccc2OCCN2CCC(=O)NC2=O)c1 |  | V106A | RT activity | pseudotyped | >10 µM
Cc1ccccc1Cc1cccc(C(=O)CC(=O)C(=O)O)c1 |  | INTG-T66I M154I | p24 |  | 0.3 µM

Rows are shuffled and stem from different studies. a–b is a range or a potency band. ECn is the concentration giving n% inhibition of infection, replication or growth.